Results of unrelated studies side by side (data: NIAID ChemDB).

Common to all: growth or infection tests; species: HIV-1; read-out: fold resistance

Conditions beyond the fields shown may differ between rows.

compound | strain | mutations | cell line | read by | result
Cc1ccc(C2CC2)c(-c2cc(F)c3c(c2C)CCCO3)c1[C@H](OC1CC1)C(=O)O | NL4-3 | NRTI/NNRTI resistant NLAY351717 | MT-4 | luminescence | 1
Cc1cc2cn[nH]c2cc1NC(=O)COc1ccc(Cl)cc1C(=O)c1cccc(C#N)c1 | HXB2 | RT-P236L | HeLa + HELA CD4+ | β-galactosidase | ~10
CCC(CC)OC(=O)c1cc(NC(=S)OC(C)C)ccc1Cl | - | RT-E138K | CEM | syncytia | 15
CCN1c2ncc(CCOc3ccc(C(=O)Nc4ccc(C(=O)O)cc4)cc3C)cc2C(=O)Nc2c(C)ccnc21 | - | RT-K103N Y181C | C8166 | p24 | >1
CC(C)=CCOc1cc(NC(=S)c2ccoc2C)ccc1Cl | Oxathiin carboxanilide-resistant RT L100I | RT-L100I | CEM + CEM-SS | cytopathic effect / XTT | 50
CCN1c2ncc(CCOc3ccc(/C=C(\C)C(=O)O)c4ccccc34)cc2C(=O)N(C)c2ccc(Cl)nc21 | - | RT-K103N Y181C | C8166 | p24 | 1
CC(C)[C@H](NC(=O)OCc1ccccn1)C(=O)N[C@@H](Cc1ccccc1)[C@@H](O)C[C@H](Cc1ccccc1)NC(=O)OCc1cccnc1 | NL4-3 | PR-L10R | MT-4 | p24 | 1
COc1ccnc2[nH]cc(C(=O)C(=O)N3CCN(C(=O)c4ccccc4)C[C@H]3C)c12 | LAI(GP41-I595F) Recombinant | GP41-I595F | MT-2 | RT activity | 8
Cc1cc(S(N)(=O)=O)ccc1NC(=O)COc1ccc(Cl)cc1C(=O)c1cc(Cl)cc(C#N)c1 | HXB2 | RT-V106I | HeLa + HELA CD4+ | β-galactosidase | ~1
Cc1ccc(C2CC2)c(-c2ccc3c(c2C)CCCO3)c1[C@H](OC(C)(C)C)C(=O)O | NL4-3 | NRTI/NNRTI resistant K103N/Y181C | MT-4 | luminescence | 1
CCC(C)OC(=O)c1cc(NC(=S)OC(C)C)ccc1Cl | - | RT-L100I | CEM | syncytia | 29.8
CC(C)=CCOc1cc(NC(=S)c2ccsc2C)ccc1Cl | NL4-3 (RT K103N) | RT-K103N | CEM + CEM-SS | cytopathic effect / XTT | 11.7
CCN1c2ncc(CCOc3ccc(-c4cc(C(=O)O)c(C)o4)cc3)cc2C(=O)N(C)c2cccnc21 | - | RT-K103N Y181C | C8166 | p24 | >1
CCCc1cc(=O)oc2c3c(c4c(c12)OC(C)(C)CC4)O[C@H](C)[C@@H](C)C3=O | - | RT-T139I | - | cytopathic effect / XTT | >68
CCOCn1c(Sc2ccccc2)c(CC)c(=O)[nH]c1=O | IIIB | Nevirapine resistant (RT Y181C) | CEM | syncytia | 108
Cc1cc(Cl)cc(C(=O)c2cc(Cl)ccc2OCC(=O)Nc2ccc(S(N)(=O)=O)cc2C)c1 | HXB2 | RT-K103N | HeLa + HELA CD4+ | β-galactosidase | ~10
CC(C)OC(=O)c1cc(NC(=S)SC(C)C)ccc1Cl | - | RT-V106A | CEM | syncytia | >1.54
CCN1c2ncc(CCOc3ccc(-c4ccc(C(O)C(=O)O)cc4)cc3C)cc2C(=O)N(C)c2cccnc21 | - | RT-K103N Y181C | C8166 | p24 | 1
Cc1cc(S(N)(=O)=O)ccc1NC(=O)COc1ccc(Cl)cc1C(=O)c1cc(F)cc(C(F)(F)F)c1 | HXB2 | RT-P225H | HeLa + HELA CD4+ | β-galactosidase | ~1
C=CCOc1cc(NC(=S)OC(C)C)ccc1Cl | - | RT-E138K | CEM | syncytia | 7140
CCN1c2ncc(CCOc3ccc(C(=O)Nc4ccc(CC(=O)O)cc4)cc3C)cc2C(=O)Nc2c(C)ccnc21 | - | RT-K103N Y181C | C8166 | p24 | >1
C=CCOc1cc(NC(=S)OC(C)C)ccc1C#N | - | RT-Y181C | CEM | syncytia | 13
CC(C)c1c(Sc2ccccc2)n(COCc2ccccc2)c(=S)[nH]c1=O | IIIB | RT-Y181I | CEM | syncytia | 1250
CCN1c2ncc(CCOc3ccc(C(=O)O)c4c3CCN(C(=O)OC(C)(C)C)C4)cc2C(=O)N(C)c2cccnc21 | - | RT-K103N Y181C | C8166 | p24 | 1
Nc1nc2c(ncn2[C@H]2CO[C@@H](CO)O2)c(=O)[nH]1 | - | RT-K65R | MT-2 | cytopathic effect / XTT | ~1.67
CCN1c2ncc(CCOc3ccc(-n4nc(C(=O)O)cc4C)cc3C)cc2C(=O)N(C)c2cccnc21 | - | RT-K103N Y181C | C8166 | p24 | >1
CCN1c2ncc(CCOc3ccc(C(C)C(=O)O)c4ccccc34)cc2C(=O)N(C)c2cccnc21 | - | RT-K103N Y181C | C8166 | p24 | 1
CC(=O)COc1cc(NC(=S)OC(C)C)ccc1Cl | - | RT-E138K | CEM | syncytia | 7.99
C[C@@H]1CCO[C@H]2Cn3cc(C(=O)NCc4ccc(F)cc4F)c(=O)c(O)c3C(=O)N12 | - | I60M/L74F/V75I | TZM-bl | luciferase / luminescence | 0.5
CCN1c2ncc(CCOc3ccc(-c4ccn(CC(=O)O)n4)cc3)cc2C(=O)N(C)c2cccnc21 | - | RT-K103N Y181C | C8166 | p24 | 1
Cc1ccccc1OC(=O)c1cc(NC(=S)OC(C)C)ccc1Cl | - | RT-L100I | CEM | syncytia | 13.8
CCN1c2ncc(CCOc3ccc(CC(=O)O)c4ccccc34)cc2C(=O)N(C)c2cccnc21 | - | RT-K103N Y181C | C8166 | p24 | 1
CCCc1c(OC2CCCCC2)c2cc(Cl)ccc2[nH]c1=O | NNRTI-resistant (RT K103N) | RT-K103N | HeLa + HeLa-MAGI | β-galactosidase | >62.5
Cc1cc(-c2ccc[n+]([O-])c2)ccc1OCCc1cnc2c(c1)C(=O)N(C)c1cccnc1N2C1CC1 | - | RT-K103N Y181C | C8166 | p24 | >1
CCN1c2ncc(CCOc3ccc4cc(CC(=O)O)ccc4c3C)cc2C(=O)N(C)c2cccnc21 | - | RT-V106A | C8166 | p24 | 1–10
O=C(O[C@@H]1[C@H](OC(=O)c2ccccc2)[C@@H](CO)O[C@H]1n1cnc2c(N(C(=O)c3ccccc3)C(=O)c3ccccc3)ncnc21)c1ccccc1 | NL4-3 | M41L-L210W-T215Y | HeLaP4 | β-galactosidase | 0.38
CC(C)c1c(Sc2ccccc2)n(COCCO)c(=O)[nH]c1=O | IIIB (TIBO 82150) (RT-L100I) | RT-L100I | CEM | syncytia | 10
O=C1Nc2ccc(F)c(F)c2[C@@](C#CC2CC2)(C(F)(F)F)N1 | - | RT-Y181C | - | - | <13.3
Cc1cc(C#N)cc(C(=O)c2cc(Cl)ccc2OCC(=O)Nc2ccc(S(N)(=O)=O)cc2C)c1 | HXB2 | RT-V106I | HeLa + HELA CD4+ | β-galactosidase | ~1
CCN1c2ncc(CCOc3ccc4cc(CC(=O)NN)ccc4c3)cc2C(=O)N(C)c2cccnc21 | - | RT-K103N Y181C | C8166 | p24 | 1
CCC(CC)COC(=O)c1cc(NC(=S)OC(C)C)ccc1Cl | - | RT-L100I | CEM | syncytia | 16.6
Cc1c(OCC2CCC2)c2cc(F)ccc2[nH]c1=O | NNRTI-resistant (RT Y181C) | RT-Y181C | HeLa + HeLa-MAGI | β-galactosidase | >3.28
CCC(C)OC(=S)Nc1ccc(Cl)c(C(=O)OC(C)(C)C)c1 | - | RT-E138K | CEM | syncytia | 4.01
Cc1cc2[nH]cnc2cc1NC(=O)COc1ccc(Cl)cc1C(=O)c1cc(F)cc(C(F)(F)F)c1 | HXB2 | RT-V108I | HeLa + HELA CD4+ | β-galactosidase | ~1
O=C1Nc2ccc(F)c(F)c2[C@@](/C=C/C2CC2)(C(F)(F)F)N1 | - | RT-V108I | - | - | <6.32
C/C=C\COc1cc(NC(=S)OC(C)C)ccc1OC | - | RT-V106A | CEM | syncytia | 50
Cc1cc(S(N)(=O)=O)ccc1NC(=O)COc1ccc(Cl)cc1C(=O)c1cc(F)cc(F)c1 | HXB2 | RT-V108I Y181C | HeLa + HELA CD4+ | β-galactosidase | ~1
COC(=O)c1cc(NC(=S)OC(C)C)ccc1Cl | - | RT-E138K | CEM | syncytia | 15
CCN1c2ncc(CCOc3ccc(CCC(=O)O)c4c3CCCC4)cc2C(=O)N(C)c2ccc(Cl)nc21 | - | RT-K103N Y181C | C8166 | p24 | 1
C/C=C/COc1cc(NC(=S)OC(C)C)ccc1Cl | - | RT-Y181C | CEM | syncytia | 13.7
CC(=O)c1ccc(C)cc1NC(C(N)=O)c1c(Cl)cccc1Cl | UC82-R (RT-Y181C) | RT-Y181C | CEM + CEM-SS | cytopathic effect / XTT | >100
CCN1c2ncc(CCOc3ccc(-c4ccc(C(=O)O)s4)cc3C)cc2C(=O)N(C)c2cccnc21 | - | RT-K103N Y181C | C8166 | p24 | >1
CC(C)OC(=S)Nc1ccc(Cl)c(C(=O)OCC2CC2)c1 | - | RT-Y181C | CEM | syncytia | 35
Nc1ncnc2c1ncn2[C@@H]1O[C@H](OCP(=O)(O)O)C=C1F | - | RT-K65R | MT-2 | cytopathic effect | 1.2
CCCCC(CC)COC(=O)c1cc(NC(=S)OC(C)C)ccc1Cl | - | RT-V106A | CEM | syncytia | 125
CCN1c2ncc(CCOc3ccc(CCC(=O)O)c4c3CCCC4)cc2C(=O)N(C)c2cccnc21 | - | RT-K103N Y181C | C8166 | p24 | 1
CC(C)OC(=O)Nc1ccc(Cl)c(C(=O)OC(C)C)c1 | - | RT-V106A | CEM | syncytia | >1.82
CCOCn1c(Cc2ccccc2)c(CC)c(=O)[nH]c1=O | IIIB | RT-Y188H | CEM | syncytia | ≥1875
CC(C)OC(=S)Nc1ccc(Cl)c(C(=O)OC2CCCC2)c1 | - | RT-L100I | CEM | syncytia | 37.2
CC(C)c1c(Sc2ccccc2)n(COCCO)c(=S)[nH]c1=O | IIIB TIBO R82913-resistant (RT K103N) | RT-K103N | CEM | syncytia | >50
CCN1c2ncc(CCOc3ccc(C(=O)Nc4ccc[n+]([O-])c4)cc3C)cc2C(=O)Nc2c(C)ccnc21 | - | RT-K103N Y181C | C8166 | p24 | 1
C=CCOC(=O)c1cc(NC(=S)OC(C)C)ccc1Cl | - | RT-E138K | CEM | syncytia | 3.5
Cc1cc(C#N)cc(C(=O)c2cc(Cl)ccc2OCC(=O)Nc2cnc(S(N)(=O)=O)cc2C)c1 | HXB2 | RT-K103N P225H | HeLa + HELA CD4+ | β-galactosidase | ~1
CCOCn1c(Cc2ccccc2)c(C(C)C)c(=O)[nH]c1=O | IIIB | Nevirapine resistant (RT Y181C) | CEM | syncytia | 115

Repeating the first 9 entries:

Cc1ccc(C2CC2)c(-c2cc(F)c3c(c2C)CCCO3)c1[C@H](OC1CC1)C(=O)O ; strain: NL4-3 ; mutations: NRTI/NNRTI resistant NLAY351717 ; cell line: MT-4 ; read by: luminescence ; result: 1
Cc1cc2cn[nH]c2cc1NC(=O)COc1ccc(Cl)cc1C(=O)c1cccc(C#N)c1 ; strain: HXB2 ; mutations: RT-P236L ; cell line: HeLa + HELA CD4+ ; read by: β-galactosidase ; result: ~10
CCC(CC)OC(=O)c1cc(NC(=S)OC(C)C)ccc1Cl ; mutations: RT-E138K ; cell line: CEM ; read by: syncytia ; result: 15
CCN1c2ncc(CCOc3ccc(C(=O)Nc4ccc(C(=O)O)cc4)cc3C)cc2C(=O)Nc2c(C)ccnc21 ; mutations: RT-K103N Y181C ; cell line: C8166 ; read by: p24 ; result: >1
CC(C)=CCOc1cc(NC(=S)c2ccoc2C)ccc1Cl ; strain: Oxathiin carboxanilide-resistant RT L100I ; mutations: RT-L100I ; cell line: CEM + CEM-SS ; read by: cytopathic effect / XTT ; result: 50
CCN1c2ncc(CCOc3ccc(/C=C(\C)C(=O)O)c4ccccc34)cc2C(=O)N(C)c2ccc(Cl)nc21 ; mutations: RT-K103N Y181C ; cell line: C8166 ; read by: p24 ; result: 1
CC(C)[C@H](NC(=O)OCc1ccccn1)C(=O)N[C@@H](Cc1ccccc1)[C@@H](O)C[C@H](Cc1ccccc1)NC(=O)OCc1cccnc1 ; strain: NL4-3 ; mutations: PR-L10R ; cell line: MT-4 ; read by: p24 ; result: 1
COc1ccnc2[nH]cc(C(=O)C(=O)N3CCN(C(=O)c4ccccc4)C[C@H]3C)c12 ; strain: LAI(GP41-I595F) Recombinant ; mutations: GP41-I595F ; cell line: MT-2 ; read by: RT activity ; result: 8
Cc1cc(S(N)(=O)=O)ccc1NC(=O)COc1ccc(Cl)cc1C(=O)c1cc(Cl)cc(C#N)c1 ; strain: HXB2 ; mutations: RT-V106I ; cell line: HeLa + HELA CD4+ ; read by: β-galactosidase ; result: ~1

Fold resistance: result on the changed form divided by that on wild type. Two numbers with a dash give a range or band. Blank or dashed fields: not listed here.